Patent publication US20080280761A1 (priority 2005, published 2008)

Columns and labels:
[1] = test system: thylakoid membrane, electron transfer reaction of two photosystems, especially photosystem II; assay: effect on plant photosynthesis (mechanism); type: biochemical
[2] = test system: Eupatorium adenophorum sprengel lamina; assay: pathogenicity test by needle puncture on crofton weed leaf; type: in vivo; details: 50 μg/g, 48 hours; for toxicity compared with germfree filtrate: P<0.01; for pathogenicity to Eupatorium adenophorum spreng: needle puncture

| Compound | structure and synthesis of membrane protein [1] | toxicity compared with germfree filtrate [2] | pathogenicity to Eupatorium adenophorum spreng [2] |
| --- | --- | --- | --- |
| CC(=O)C1=C(O)C(CC(C)C)NC1=O (centres unmarked) [iso-tenuazonic acid] | no effect |  |  |
| CCC(C)C1NC(=O)C(C(C)=O)=C1O (centres unmarked) [tenuazonic acid] | no effect |  |  |
| magnesium iso-tenuazonate |  | apparently higher | high pathogenetic |
| magnesium tenuazonate |  | apparently higher | high pathogenetic |
| magnesium tenuazonate iso-tenuazonate |  | apparently higher | high pathogenetic |
